Anti-infective test results gathered from many reports (values: NIAID ChemDB through PubChem).

All rows: growth or infection tests; agent: HIV-2; cells: MT-4; read-out: EC50

Blank or dashed fields: not listed here. Rows are shuffled and stem from different studies. ECn: concentration that inhibits the pathogen or its effect by n%.

compound | strain or isolate | read by | value
C=Cn1cc(C(=O)O)c(=O)c2ccc(N3CCN(c4nc5ccccc5s4)CC3)nc21 | ROD | MTT | 0.025 µM
CC(C)(C)c1ccc(C(Cl)c2ccnc(Nc3ccc(C#N)cc3)n2)cc1 | ROD | cytopathic effect | 32.9 µM
CCOC(=O)CNc1nc(Nc2ccc(F)cc2)nc(Oc2cc(=O)oc3ccccc23)n1 | ROD | MTT | >67.6 µg/mL
Cc1cn([C@@H]2OC(O[Si](C)(C)C(C)(C)C)C3(OS(=O)(=O)C=C3NCCC(=O)OCc3ccccc3)C2O[Si](C)(C)C(C)(C)C)c(=O)n(C)c1=O | ROD | cytopathic effect | >250 µM
COc1ncnc(NS(=O)(=O)c2ccc(N=C3C(=O)N(CN(C)C)c4ccccc43)cc2)c1OC | ROD | cytopathic effect / MTT | >1 µg/mL
Cc1cn([C@H]2C[C@@H](OCP(=O)(O)O)CO2)c(=O)nc1N | ROD | MTT / absorbance | >410 µM
CCOP(=O)(OCC)C(Cc1ccccn1)N[C@@H](Cc1ccccc1)[C@H](O)CN(CC(C)C)S(=O)(=O)c1ccc(OC)cc1 | ROD | MTT | >13.93 µg/mL
C=Cn1cc(C(=O)O)c(=O)c2ccc(N3CCN(c4cccc(C(F)(F)F)c4)CC3)nc21 | ROD | MTT | 0.78 µM
CC(=O)Nc1cnc(Oc2c(C)cc(C#N)cc2C)nc1Nc1ccc(C#N)cc1 | ROD | MTT | >313 µM
COc1ccc(S(=O)(=O)NC(Cc2ccccc2)c2nnc(Nc3ccc(Br)cc3)s2)cc1 | ROD | MTT | >1.98 µM
Cc1cn([C@H]2C[C@H](N=[N+]=[N-])[C@@H](CO)O2)c(=O)[nH]c1=O | ROD | MTT / absorbance | 0.0082 µM
CC(=O)Nc1cnc(Oc2c(C)cc(Br)cc2C)nc1Nc1ccc(C#N)cc1 | ROD | MTT | >147 µM
CC(C)C(NS(=O)(=O)c1ccc(Cl)cc1)c1nnc(Nc2ccc(F)cc2)s1 | ROD | MTT | >8.81 µM
Cc1ccc(C(Br)c2ccnc(Nc3ccc(C#N)cc3)n2)cc1 | ROD | cytopathic effect | 31.5 µM
CC(=O)Nc1cnc(Oc2c(C)cc(C=O)cc2C)nc1Nc1ccc(C#N)cc1 | ROD | MTT | >236 µM
CC(NS(=O)(=O)c1ccc(Cl)cc1)c1nnc(Nc2ccc(Br)cc2)s1 | ROD | MTT | >4.09 µM
Cc1cc(C)c(Oc2ncc(NC(=O)C(F)(F)F)c(Nc3ccc(C#N)cc3)n2)c(C)c1 | ROD | MTT | >242 µM
Cn1cc(C(=O)O)c(=O)c2cncc(N3CCN(c4nc5ccccc5s4)CC3)c21 | ROD | MTT | >25.57 µM
COc1ccc(CCNc2nc(NC(=O)Nc3ccc(Cl)cc3)nc(Oc3cc(=O)oc4ccccc34)n2)cc1OC | ROD | MTT | >35.43 µg/mL
CCCOC(=O)[C@H](Cc1ccccc1)NP(=O)(CO[C@H]1CO[C@@H](n2cnc3c(NC4CC4)nc(N)nc32)C1)N[C@@H](Cc1ccccc1)C(=O)OCCC | ROD | MTT / absorbance | 3.99 µM
CC(CS)C(=O)N1CCC[C@@H]1C(=O)NCC(=O)N1CCN(c2nc3ccccc3s2)CC1 | ROD | MTT | >1.21 µg/mL
COc1ccc(CCNc2nc(NC(=O)Nc3ccc4ccccc4c3)nc(Oc3cc(=O)oc4ccccc34)n2)cc1OC | ROD | MTT | >12.85 µg/mL
Cn1cc(C(=O)O)c(=O)c2sc(N3CCN(c4nc5ccccc5s4)CC3)nc21 | ROD | MTT | >2.05 µM
CC(=O)Nc1cnc(Oc2c(Br)cc(Br)cc2Br)nc1Nc1ccc(C#N)cc1 | ROD | MTT | >118 µM
CN(C)c1ccn([C@@H]2O[C@H](CO[Si](C)(C)C(C)(C)C)C3(OS(=O)(=O)C=C3N)[C@H]2O[Si](C)(C)C(C)(C)C)c(=O)n1 |  | cytopathic effect | >166 µM
Nn1cc(C(=O)O)c(=O)c2ccc(N3CCN(c4ccccn4)CC3)nc21 | ROD | MTT | >15.69 µM
Cc1cc(C=O)cc(C)c1Oc1ncc([N+](=O)[O-])c(Nc2ccc(C#N)cc2)n1 | ROD | MTT | >37 µM
CCOC(=O)CNc1nc(NC(=O)Nc2ccc(Cl)cc2)nc(Oc2cc(=O)oc3ccccc23)n1 | ROD | MTT | >125 µg/mL
COc1ncnc(NS(=O)(=O)c2ccc(N=C3C(=O)N(CN4CCNCC4)c4ccccc43)cc2)c1OC | ROD | cytopathic effect / MTT | >2 µg/mL
Cn1cc(C(=O)O)c(=O)c2cc(N)c(N3CCN(c4nc5ccccc5s4)CC3)nc21 | ROD | MTT | >0.077 µM
Cc1ccc(S(=O)(=O)NC(Cc2ccccc2)c2nnc(Nc3ccc(Br)cc3)s2)cc1 | ROD | MTT | >1.58 µM
CNc1nc(=O)n([C@@H]2O[C@H](CO[Si](C)(C)C(C)(C)C)C3(OS(=O)(=O)C=C3N)[C@H]2O[Si](C)(C)C(C)(C)C)cc1C |  | cytopathic effect | >33 µM
Cc1cnc(Nc2ccc(C#N)cc2)nc1C(Cl)c1ccc(Br)cc1 | ROD | cytopathic effect | 10.3 µM
C=Cn1cc(C(=O)O)c(=O)c2ccc(N3CCN(c4ccccn4)CC3)nc21 | ROD | MTT | 0.21 µM
COc1ccc(Nc2nnc(C(C)NS(=O)(=O)c3ccc(C)cc3)s2)cc1 | ROD | MTT | >41 µM
O=c1[nH]cnc2c1ncn2[C@H]1C[C@@H](OCP(=O)(O)O)CO1 | ROD | MTT / absorbance | >395 µM
COc1ncnc(NS(=O)(=O)c2ccc(N=C3C(=O)N(CN4CCCC4)c4ccc(C)cc43)cc2)c1OC | ROD | cytopathic effect / MTT | >21.1 µg/mL
C[C@H](CS)C(=O)N1CCC[C@@H]1c1nc2ncccc2[nH]1 | ROD | MTT | >4.24 µg/mL
CCOP(=O)(OCC)C(Cc1ccccc1)N[C@@H](Cc1ccccc1)[C@H](O)CN(CC(C)C)S(=O)(=O)c1ccc(OC)cc1 | ROD | MTT | >13.25 µg/mL
COc1ncnc(NS(=O)(=O)c2ccc(N=C3C(=O)N(CN4CCOCC4)c4ccccc43)cc2)c1OC | ROD | cytopathic effect / MTT | >2 µg/mL
C[C@H](CS)C(=O)N1CCC[C@@H]1c1nc2c(Cl)cccc2[nH]1 | ROD | MTT | >28.17 µg/mL
CC(C)(C)[Si](C)(C)OC[C@H]1O[C@@H](n2cc(I)c(=O)[nH]c2=O)[C@H](O[Si](C)(C)C(C)(C)C)C12OS(=O)(=O)C=C2N |  | cytopathic effect | >5.7 µM
CCc1nc([N+](=O)[O-])c(N2CCN(C(=O)CSC[C@@H](C)C(=O)N3CCC[C@@H]3C(=O)O)CC2)n1Cc1ccccc1 | ROD | MTT | >2.23 µg/mL
COc1ccc(C(Cl)c2ccnc(Nc3ccc(C#N)cc3)n2)cc1 | ROD | cytopathic effect | 33.6 µM
COc1ncnc(NS(=O)(=O)c2ccc(N=C3C(=O)N(CN4CCCC4)c4ccccc43)cc2)c1OC | ROD | cytopathic effect / MTT | >2 µg/mL

Repeating the final 3 entries:

{"compound": "CCc1nc([N+](=O)[O-])c(N2CCN(C(=O)CSC[C@@H](C)C(=O)N3CCC[C@@H]3C(=O)O)CC2)n1Cc1ccccc1", "strain or isolate": "ROD", "read by": "MTT", "value": ">2.23 µg/mL"}
{"compound": "COc1ccc(C(Cl)c2ccnc(Nc3ccc(C#N)cc3)n2)cc1", "strain or isolate": "ROD", "read by": "cytopathic effect", "value": "33.6 µM"}
{"compound": "COc1ncnc(NS(=O)(=O)c2ccc(N=C3C(=O)N(CN4CCCC4)c4ccccc43)cc2)c1OC", "strain or isolate": "ROD", "read by": "cytopathic effect / MTT", "value": ">2 µg/mL"}